Results of unrelated studies side by side (data: NIAID ChemDB).

All rows: whole-cell or culture tests; agent: HIV-1; method: cytopathic effect / MTT; read-out: EC50

An empty or dashed field is not shown. Neighbouring rows are from separate reports. ECn is the concentration giving n% inhibition of infection, replication or growth.

compound,mutations,cell line,strain or isolate,setting,result
O=c1[nH]cnc2c1ncn2[C@H]1CC[C@@H](CO)O1,,MT-4,IIIB,,19 µM
CCOCn1c(Cc2ccccc2)c(C(C)C)c(=O)[nH]c1=O,,MT-4,HXB2,,0.01 µM
CC1CCN(CCCN2c3ccccc3NC(C)c3cccn32)CC1,,MT-4,IIIB,,>173 µM
C1CCNCCNCCCNCCNC1,,MT-4,IIIB,,100 µM
Cc1cc(C)c(Nc2nc(Nc3ccc(C#N)cc3)ncc2Cl)c(C)c1,RT-K103N Y181C,MT-4,NNRTI-resistant (RT K103N Y181C),,0.114 µM
CCc1c(C(=O)c2cccc3ccccc23)n(CC(=O)OC)c(=O)[nH]c1=O,,MT-4,IIIB,,1.12 µM
CC1(C)C=Cc2cc(C(=O)CC(=O)c3ccc(O)cc3)c(O)cc2O1,,MT-4,IIIB,,>100 µg/mL
CNc1cccc2c1nc(-c1c(F)cccc1F)n2Cc1c(F)cccc1F,RT-K103N,MT-4,,,10.2 µM
CCc1c(C(=O)c2cccc3ccccc23)n(COC)c(=O)[nH]c1=O,,MT-4,IIIB,,5.89 µM
C(CCC1CNCCNCCCNCCNC1)CCC1CNCCNCCCNCCNC1,,MT-4,RF,4 d,0.3 µM
OCCN1CCN(CCCN2c3ccccc3Sc3ccc(C(F)(F)F)cc32)CC1,,CEM-T4 + CEM,IIIB,,>9.1 µg/mL
c1cc(CN2CCCNCCCNCCNCCC2)ccc1CN1CCCNCCCNCCNCCC1,,MT-4,RF,,0.22 µg/mL
Cc1cn([C@H]2C[C@H](N=[N+]=[N-])[C@@H](COP(=O)(OC(C)CSC(=O)C(C)(C)C)OC(C)CSC(=O)C(C)(C)C)O2)c(=O)[nH]c1=O,,CEM + CEM-SS,LAI,,0.004 µM
C1CNCCNCC(CCC2CNCCNCCCNCCNC2)CNCCNC1,,MT-4,MN,5 d,0.26 µM
c1ccc2c(CN3CCCNCCNCCCNCC3)cc(CN3CCCNCCNCCCNCC3)cc2c1,AMD3100-resistant,MT-4,NL4-3,,>25 µg/mL
CC(C)Nc1cccnc1N1CCN(C(=O)c2cc3cc(NS(C)(=O)=O)ccc3[nH]2)CC1,RT-K100I,MT-4,,,2.5 µM
Cc1ccnc2c1NC(=O)c1cccnc1N2C1CC1,RT-V106A,MT-4,,,5.01 µM
CN1CCN(C2=Nc3cc(O)ccc3Nc3ccccc32)CC1,,MT-2,IIIB,,56 µg/mL
CCc1c(Sc2cccc3ccccc23)nc(SCC(=O)c2ccc(F)cc2)[nH]c1=O,,MT-4,IIIB,,3.33 µM
Nc1nc2c(ncn2[C@H]2C=C[C@@H](CO)O2)c(=O)[nH]1,,MT-2,IIIB,,6.3 µM
CC(C)=CCOCn1c(Cc2cc(C)cc(C)c2)c(C(C)C)c(=O)[nH]c1=O,,MT-4,IIIB,,0.00015 µM
CC(C)CN(C[C@@H](O)[C@H](Cc1ccccc1)NC(=O)O[C@H]1CCOC1)S(=O)(=O)c1ccc(N)cc1,PR-V82F I84V,MT-4,RF2802 (PR-V82F I84V),,0.115 µM
CC/C(C)=C/Cc1c(O)cc2oc(-c3ccc(O)c(O)c3)cc(=O)c2c1O,,MT-4,IIIB,,>100 µg/mL
Fc1cccc(Cl)c1C1OCc2nc3ccccc3n21,RT-L100I,CEM,TIBO R82150-resistant (RT L100I),,7.71 µM
CCc1c(Sc2ccccc2)nc(SCC(=O)c2ccc(OC)cc2)[nH]c1=O,,MT-4,IIIB,,6.72 µM
C[C@H](CCC(=O)O)[C@H]1CC[C@H]2C3[C@H](OS(=O)(=O)O)C[C@@H]4C[C@H](O)CC[C@]4(C)[C@H]3CC[C@]12C,,MT-4,IIIB,,>307 µg/mL
Fc1c(F)c(CN2CCCNCCNCCCNCC2)c(F)c(F)c1CN1CCCNCCNCCCNCC1,,MT-4,RF,,0.08 µg/mL
Fc1cccc(F)c1C1SCc2nc3ccccc3n21,RT-L100I,CEM,TIBO R82150-resistant (RT L100I),,3.12 µM
O=C1CCNCCNCCCNCCN1,,MT-4,IIIB,,>280 µM
CC(C)c1c(C(=O)c2cccc3ccccc23)n(C/C=C/c2ccccc2)c(=O)[nH]c1=O,,MT-4,IIIB,,0.14 µM
Nc1nc(NC2CC2)c2ncn([C@H]3C=C[C@@H](CO)O3)c2n1,RT-K65R,PBMC,BRU PITT.(RT-K65R),,19 µM
C[C@H](CCC(=O)O)[C@H]1CC[C@H]2C3[C@H](O)C[C@@H]4C[C@H](OS(=O)(=O)O)CC[C@]4(C)[C@H]3CC[C@]12C,,MT-4,IIIB,,>335 µg/mL
Cc1c(O)cccc1C(=O)N[C@@H](CSc1ccccc1)[C@H](O)CN1C[C@H]2CCCC[C@H]2C[C@H]1C(=O)NC(C)(C)CO,,CEM + CEM-SS,RF,,0.0342 µM
CCOC(=O)C1Nc2ccccc2S(=O)(=O)n2cccc21,,MT-4,IIIB,,>300 µM
OCCOCCN1CCN(C2=Nc3ccccc3Sc3ccccc32)CC1,,MT-2,IIIB,,>17 µg/mL
CC(C)=CCC/C(C)=C/Cc1cc(-c2cc(=O)c3c(O)cc(O)cc3o2)ccc1O,,MT-4,IIIB,,>40 µg/mL
c1ccc(-c2cc(CN3CCCNCCNCCCNCC3)ccc2CN2CCCNCCNCCCNCC2)cc1,,MT-4,RF,,0.39 µg/mL
Oc1ccc2c(c1)C(N1CCNCC1)=Nc1ccccc1N2,,CEM-T4 + CEM,IIIB,,>181 µg/mL
COc1ccc(S(=O)(=O)N(CC(C)C)C[C@@H](O)[C@H](Cc2ccccc2)NC(=O)O[C@H]2CO[C@H]3OCC[C@H]32)cc1,,MT-2,NL4-3 Laboratory clone,,0.0003 µM
CCOC(=O)CN1C(=O)c2cccn2S(=O)(=O)c2ccccc21,,MT-4,IIIB,,23 µM
C#CCn1c(C(=O)c2cccc3ccccc23)c(CC)c(=O)[nH]c1=O,,MT-4,IIIB,,>4.82 µM
C[C@H](CC(=O)O)[C@H]1CC[C@H]2[C@@H]3CC[C@@H]4C[C@H](OS(=O)(=O)O)CC[C@]4(C)[C@H]3C[C@H](OS(=O)(=O)O)[C@]12C,,MT-4,IIIB,,256 µg/mL
O=C1Nc2ccccc2S(=O)(=O)n2cccc21,,MT-4,IIIB,,11 µM
COc1ccc(Oc2coc3cc(OC)cc(O)c3c2=O)c(OC)c1,,MT-4,IIIB,,>100 µg/mL
O=C1c2cccn2-c2ccc(Cl)cc2S(=O)(=O)N1c1ccc(Cl)cc1,,MT-4,IIIB,,>30 µM
CC(=O)Nc1cccc2c1nc(-c1c(F)cccc1F)n2Cc1c(F)cccc1F,RT-L100I,MT-4,,,31.6 µM
CC1CCN(CCCN2c3ccccc3NC(c3ccccc3)c3cccn32)CC1,,MT-4,IIIB,,>47 µM
CC(C)=CCc1cc(C(=O)CC(=O)c2cc3c(cc2O)OC(C)(C)C=C3)ccc1O,,MT-4,IIIB,,>20 µg/mL
CCc1c(C(=O)c2cccc3ccccc23)n(CC(=O)c2ccc(OC)cc2)c(=O)[nH]c1=O,,MT-4,IIIB,,>28.75 µM
COCOc1ccc(/C=C/C(=O)c2c(O)cc(OCOC)cc2OCOC)cc1,,MT-4,IIIB,,>20 µg/mL
C1CNCCNCCNCCN1,,MT-4,IIIB,,>20 µM
O=C(O)c1cc(CN2CCCNCCNCCCNCC2)ccc1CN1CCCNCCNCCCNCC1,,MT-4,NL4-3,,>250 µg/mL
CC(C)c1nc(CN(C)C(=O)N[C@H](C(=O)N[C@@H](Cc2ccccc2)C[C@H](O)[C@H](Cc2ccccc2)NC(=O)OCc2cncs2)C(C)C)cs1,,MT-2,LAI Laboratory isolate,,0.041 µM
Clc1cc(CN2CCCNCCNCCCNCC2)c(Cl)cc1CN1CCCNCCNCCCNCC1,AMD3100-resistant,MT-4,NL4-3,,0.68 µg/mL
COCn1c(C(=O)c2cccc3ccccc23)c(C(C)C)c(=O)[nH]c1=O,,MT-4,IIIB,,0.88 µM
COc1c2c(cc3oc(=O)c4c5ccc(O)cc5oc4c13)OC(C)(C)CC2,,MT-4,IIIB,,>100 µg/mL
C=CCN1C(=O)c2cccn2S(=O)(=O)c2ccccc21,,MT-4,IIIB,,5 µM
CC(C)c1nc(CN(C)C(=O)N[C@H](C(=O)N[C@@H](Cc2ccccc2)C[C@H](O)[C@H](Cc2ccccc2)NC(=O)OCc2cncs2)C(C)C)cs1,,MT-4,NL4-3,,0.067 µg/mL
NC(N)=NCCC[C@H](N)C(=O)NC[C@@H]1OC(O[C@H]2[C@@H](O)[C@H](O[C@@H]3[C@@H](O)[C@H](NC(=O)[C@@H](N)CCCN=C(N)N)C[C@H](NC(=O)[C@@H](N)CCCN=C(N)N)[C@H]3O[C@H]3O[C@H](CNC(=O)[C@@H](N)CCCN=C(N)N)[C@@H](O)[C@H](O)[C@H]3NC(=O)[C@@H](N)CCCN=C(N)N)O[C@@H]2CO)[C@H](NC(=O)[C@@H](N)CCCN=C(N)N)[C@@H](O)[C@@H]1O,AMD3100-resistant,MT-4,NL4-3,,1.2 µM
COc1ccc(Oc2coc3cc(O)cc(O)c3c2=O)c(OC)c1,,MT-4,IIIB,,>100 µg/mL
Cc1cn([C@H]2C[C@H](N=[N+]=[N-])[C@@H](CO)O2)c(=O)[nH]c1=O,,MT-4,AZT-resistant Clinical isolate,,>7 µM
Cc1cn([C@H]2C[C@H](N=[N+]=[N-])[C@@H](CO)O2)c(=O)[nH]c1=O,,MT-2,LAI Laboratory isolate,,0.024 µM
Cc1c(Cc2c(F)cccc2F)nc(SCc2ccc(C(C)C)cc2)[nH]c1=O,RT-K103N,MT-4,,,>62 µM
CCN1C(=O)C(C)N(CC=C(C)C)S(=O)(=O)c2cc(Cl)ccc21,,MT-4,IIIB,,>62 µM
Nc1nc(=O)n([C@@H]2CS[C@H](CO)O2)cc1F,RT-M184I,MT-4,RF,,323 µM
CCc1cccc2c1nc(-c1c(F)cccc1F)n2Cc1c(F)cccc1F,,MT-4,NL4-3,,0.5 µM
Nc1ccn([C@@H]2CS[C@H](CO)O2)c(=O)n1,,MT-2,LAI Laboratory isolate,,0.66 µM
C#CCN1C(=O)c2cccn2-c2ccc(Cl)cc2S1(=O)=O,,MT-4,IIIB,,>66.6 µM
Fc1cccc(F)c1Cn1c(-c2c(F)cccc2F)nc2c(Br)cccc21,RT-L100I,MT-4,,,0.3 µM
O=S1(=O)N=Cc2cccn2-c2ccc(Cl)cc21,,MT-4,IIIB,,>7.1 µM
C1CNCCNCC(CCCC2CNCCNCCCNCCNC2)CNCCNC1,,MT-4,RF,5 d,0.14 µM
O=C1c2cccn2-c2ccc(Cl)cc2S(=O)(=O)N1C1CCCC1,,MT-4,IIIB,,7.4 µM
N#Cc1ccc(Nc2nc(Cc3c(Cl)cccc3Cl)nc(NO)n2)cc1,RT-K103N Y181C,MT-4,NNRTI-resistant (RT K103N Y181C),,0.353 µM
Nc1cccc2c1nc(-c1c(F)cccc1F)n2Cc1c(F)cccc1F,RT-D67N K70R L100I T215Y K219Q,MT-4,RT-4XAZT+L100I,,0.3 µM
CC(C)c1c(C(=O)c2cccc3ccccc23)n(Cc2ccccc2)c(=O)[nH]c1=O,,MT-4,IIIB,,0.3 µM
Cc1c(Sc2ccccc2)n(COCCO)c(=O)[nH]c1=O,,MT-4,IIIB,,5.06 µM
Fc1cccc(F)c1C1SCc2nc3ccccc3n21,RT-Y181C,,IIIB,,13.8 µM
c1ccc(-c2cc(CN3CCCNCCNCCCNCC3)cc(CN3CCCNCCNCCCNCC3)c2)cc1,AMD3100-resistant,MT-4,NL4-3,,0.42 µg/mL
CC(C)=CCc1c(CCCc2ccc(O)cc2O)cc(O)c(O)c1CC=C(C)C,,MT-4,IIIB,,>20 µg/mL
CC(C)N1C(=O)c2cccn2S(=O)(=O)c2cc(Cl)ccc21,,MT-4,IIIB,,>300 µM
CC(C)(C)NC(=O)[C@@H]1CN(Cc2cccnc2)CCN1C[C@@H](O)C[C@@H](Cc1ccccc1)C(=O)N[C@H]1c2ccccc2C[C@H]1O,PR-V82F I84V,MT-4,RF2802 (PR-V82F I84V),,0.134 µM

Repeating the first 5 entries:

compound	mutations	cell line	strain or isolate	setting	result
O=c1[nH]cnc2c1ncn2[C@H]1CC[C@@H](CO)O1		MT-4	IIIB		19 µM
CCOCn1c(Cc2ccccc2)c(C(C)C)c(=O)[nH]c1=O		MT-4	HXB2		0.01 µM
CC1CCN(CCCN2c3ccccc3NC(C)c3cccn32)CC1		MT-4	IIIB		>173 µM
C1CCNCCNCCCNCCNC1		MT-4	IIIB		100 µM
Cc1cc(C)c(Nc2nc(Nc3ccc(C#N)cc3)ncc2Cl)c(C)c1	RT-K103N Y181C	MT-4	NNRTI-resistant (RT K103N Y181C)		0.114 µM